Data as given in PubChem BioAssay AID624099 (ICCB-Longwood, 2012).
Screen: 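Human genes that papillomavirus E2 requires to repress the HPV18 LCR promoter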 (primary screen). Cell system: human C33A cervical carcinoma cells (HPV-negative) stably expressing BPV1 E2 and an HPV18 LCR luciferase reporter. Reagents: siRNA pool against human genes, 40 nM. Duration: 72 h. Measurement: 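Per-well luciferase luminescence, z-scored on each plate against the plate mean and SD with control wells left out, then averaged across three replicate plates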. Scale: mean z-score and z-score: higher = stronger reporter signal, weaker E2 silencing. Rule for the call: 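Hit if mean z-score reaches 2 and two or more of three replicate z-scores also reach 2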.
In all, the deposit lists about 21,000 reagents; this is an unselected part. Of all reagents, 497 (2.4%) are marked active. 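Higher z means weaker E2 silencing; only reporter increases were scored, and knock-downs that hurt cell survival may mask genuine repressor factors.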

With knock-down of VPS53, the record shows mean z-score -0.12; z-score, replicate A = -0.72; z-score, replicate B = -0.39; z-score, replicate C = 0.76; inactive.
For LTB4R2, the values are mean z-score 0.45; z-score, replicate A = 0.61; z-score, replicate B = 0.18; z-score, replicate C = 0.56; inactive.
With knock-down of CBFB, the screen gave mean z-score 0.85; z-score, replicate A = 0.89; z-score, replicate B = 0.89; z-score, replicate C = 0.79; inactive.
Against OR52A4P, the entry reads mean z-score 1.56; z-score, replicate A = 1.94; z-score, replicate B = 1.67; z-score, replicate C = 1.09; inactive.
Depletion of LOC388438 (retired record) gave: mean z-score -0.14; z-score, replicate A = -0.04; z-score, replicate B = -0.45; z-score, replicate C = 0.07; inactive.
IRX2-DT showed mean z-score 0.29; z-score, replicate A = 0.61; z-score, replicate B = 0.1; z-score, replicate C = 0.15; inactive.
With knock-down of HNRNPCL1, the screen gave mean z-score -0.95; z-score, replicate A = -0.86; z-score, replicate B = -0.96; z-score, replicate C = -1.03; inactive.
For IDH3A the deposit lists mean z-score 0.29; z-score, replicate A = 0.45; z-score, replicate B = 0.15; z-score, replicate C = 0.26; inactive.
Depletion of LOC387824 (retired record) came out at: mean z-score 0.15; z-score, replicate A = 0.5; z-score, replicate B = -0.48; z-score, replicate C = 0.42; inactive.
Against KIF9, the values are mean z-score 0.39; z-score, replicate A = 0.58; z-score, replicate B = 0.08; z-score, replicate C = 0.51; inactive.
With knock-down of OR5V1, the screen gave mean z-score -0.89; z-score, replicate A = -0.8; z-score, replicate B = -1.31; z-score, replicate C = -0.56; inactive.
After knock-down of APC, the screen gave mean z-score 0.27; z-score, replicate A = 0.3; z-score, replicate B = 0.32; z-score, replicate C = 0.2; inactive.
With knock-down of AASDH, the record shows mean z-score 0.51; z-score, replicate A = 0.72; z-score, replicate B = 0.6; z-score, replicate C = 0.21; inactive.

An excerpt from above, reduced to “z-score, replicate B”.
LOC387824 (retired record): -0.48
KIF9: 0.08

More results follow:
For LOC401048 (retired record), the entry reads mean z-score 0.76; z-score, replicate A = 1.6; z-score, replicate B = 0.39; z-score, replicate C = 0.3; inactive.
Depletion of LINC01128 gave: mean z-score -0.42; z-score, replicate A = -0.23; z-score, replicate B = -0.55; z-score, replicate C = -0.47; inactive.
Silencing of KCNH7 gave: mean z-score -2.23; z-score, replicate A = -2.08; z-score, replicate B = -2.39; z-score, replicate C = -2.21; inactive.
For NUTF2P4 the deposit lists mean z-score -0.36; z-score, replicate A = -0.53; z-score, replicate B = -0.41; z-score, replicate C = -0.16; inactive.
Knock-down of C9orf43 came out at: mean z-score -0.89; z-score, replicate A = -0.51; z-score, replicate B = -1.04; z-score, replicate C = -1.11; inactive.
PCGF2 showed mean z-score 1.2; z-score, replicate A = 1.09; z-score, replicate B = 1.24; z-score, replicate C = 1.29; inactive.
Against DIPK1C the deposit lists mean z-score 0.08; z-score, replicate A = -0.1; z-score, replicate B = 0.16; z-score, replicate C = 0.19; inactive.
Against ITGA1, the values are mean z-score -0.69; z-score, replicate A = -0.89; z-score, replicate B = -0.44; z-score, replicate C = -0.74; inactive.
